In patent publication US20140348942A1, “Treatments for gastrointestinal disorders” (published 2014):

Biological target: Guanylate cyclase C (GC-C) on human T84 cells (human), P25092
Assay: cell-based or functional assay

DDDCCELCCNPACTGC (modifications not checked) [Peptide 20] was tested. Which Ratio EC50 pH 8/EC50 pH 5 did it give?
The Ratio EC50 pH 8/EC50 pH 5 was 90.
